Tested on: HIV-1 (IIIB strain)
Assay type: cell-based
Conditions: selectivity index (CC50/EC50)
Procedure: Compounds. Compounds were solubilized in DMSO at 200 mM and then diluted into culture medium.
Cells and viruses. MT-4, C8166,H9/IIIB and CEM cells were grown at 37° C. in a 5% CO2 atmosphere in RPMI 1640 medium, supplemented with 10% fetal calf serum (FCS), 100 IU/mL penicillin and 100 μg/mL streptomycin. Cell cultures were checked periodically for the absence of mycoplasma contamination with a MycoTect Kit (Gibco). Human immunodeficiency virus type-I (HIV-1, IIIB strain) was obtained from supernatants of persistently infected H9/IIIB cells.
HIV Titration. Titration of HIV was performed in C8166 cells by the standard limiting dilution method (dilution 1:2, four replica wells per dilution) in 96-well plates. The infectious virus titre was determined by light microscope scoring of cytopathicity after 4 days of incubation and the virus titres were expressed as CCID50/mL.
Anti-HIV Assays. Activity of the compounds against HIV-1 and HIV-2 multiplication in acutely infected cells was based on the inhibition of virus-induced cytopathicity in MT-4 and C8166 cells, respectively. Briefly, 50 μL of culture medium containing 1×10^4 cells were added to each well of flat-bottom microtiter trays containing 50 μl of culture medium with or without various concentrations of the test compounds. Then 20 μL of an HIV suspension containing 100 CCID50 were added. After a 4-day incubation at 37° C., the number of viable cells was determined by the 3-(4,5-dimethylthiazol-[…])-2,5-diphenyltetrazolium bromide (MTT) method. Cytotoxicity of the compounds was evaluated in parallel with their antiviral activity. It was based on the viability of mock-infected cells, as monitored by the MTT method.

Compound	SI
Cc1c(C(C)c2c(F)cccc2F)nc(SC2CCCC2)[nH]c1=O (single isomer, unassigned) [MC 1047+]	>100,000
Cc1c(C(C)c2c(F)cccc2F)nc(SC2CCCC2)[nH]c1=O (single isomer, unassigned) [MC 1047−]	>286
Cc1c(C(C)c2c(F)cccc2F)nc(SC(C)C)[nH]c1=O (stereo not drawn) [MC 1137]	28,571
CSCSc1nc(Cc2ccccc2)cc(=O)[nH]1 [MC 1140]	>10
CSCSc1nc(Cc2c(F)cccc2F)c(C(C)C)c(=O)[nH]1 [MC 1145, 6-(2,6-Difluorophenyhnethyl)-3,4-dihydro-5-(1-methylethyl)-2-(methylthiomethyl) thiopyrimidin-4-(3H)-one]	2,000
Cc1c(C(C)c2c(F)cccc2F)nc(SCC(C)C)[nH]c1=O (stereo not drawn) [MC 1153]	>20,000
CCc1c(Cc2c(F)cccc2F)nc(SCSC)[nH]c1=O [MC 1157]	454
CSCSc1nc(Cc2c(F)cccc2F)cc(=O)[nH]1 [MC 1161, 6-(2,6-Difluorophenyhnethyl)-3,4-dihydro-2-(methylthiomethyl)thiopyrimidin-4-(3H)-one]	>250
CSCSc1nc(Cc2c(F)cccc2F)c(C)c(=O)[nH]1 [MC 1162, 6-(2,6-Difluorophenylmethyl)-3,4-dihydro-5-methyl-2-(methylthiomethyl)thiopyrimidin-4(3H)-one]	250
CNc1nc(C(C)c2c(F)cccc2F)c(C)c(=O)[nH]1 (stereo not drawn) [MC 1170]	>6,666
Cc1c(C(C)c2c(F)cccc2F)nc(SC2CCCCC2)[nH]c1=O (stereo not drawn) [MC 1174]	>11,111
CCCCSc1nc(C(C)c2c(F)cccc2F)c(C)c(=O)[nH]1 (stereo not drawn) [MC 1175]	14,000
CNc1nc(C(C)c2c(F)cccc2F)cc(=O)[nH]1 (stereo not drawn) [MC 1178]	964
CC(c1cc(=O)[nH]c(NC2CCCCC2)n1)c1c(F)cccc1F (stereo not drawn) [MC 1180]	2,545
Cc1c(C(C)c2c(F)cccc2F)nc(NC2CCCCC2)[nH]c1=O (stereo not drawn) [MC 1181]	2,231
CN(C)c1nc(Cc2c(F)cccc2F)cc(=O)[nH]1 [MC 1182, 6-(2,6-Difluorophenylmethyl)-3,4-dihydro-2-N,N-dimethylaminopyrimidin-4-(3H)-one]	>4,000
CN1CCN(c2nc(Cc3c(F)cccc3F)cc(=O)[nH]2)CC1 [MC 1183]	>28

Compound	SI
CCCCNc1nc(Cc2c(F)cccc2F)c(C)c(=O)[nH]1 [MC 1185]	>10,000
CCCCNc1nc(C(C)c2c(F)cccc2F)c(C)c(=O)[nH]1 (stereo not drawn) [MC 1187]	8,300
O=c1cc(Cc2c(F)cccc2F)nc(N2CCOCC2)[nH]1 [MC 1188]	>333
CCCCNc1nc(C(C)c2c(F)cccc2F)cc(=O)[nH]1 (stereo not drawn) [MC 1189]	1,730
CCCNc1nc(C(C)c2c(F)cccc2F)cc(=O)[nH]1 (stereo not drawn) [MC 1190]	5,150
CC(C)Nc1nc(C(C)c2c(F)cccc2F)cc(=O)[nH]1 (stereo not drawn) [MC 1191]	3,830
CCC(C)Nc1nc(C(C)c2c(F)cccc2F)cc(=O)[nH]1 (stereo not drawn) [MC 1192]	2,150
O=c1cc(Cc2c(F)cccc2F)nc(N2CCSCC2)[nH]1 [MC 1193]	>4,000
O=c1cc(Cc2c(F)cccc2F)nc(N2CCCCC2)[nH]1 [MC 1194]	>10,000
Cc1c(Cc2c(F)cccc2F)nc(N(C)C)[nH]c1=O [MC 1195]	>10,000
O=c1cc(Cc2c(F)cccc2F)nc(N2CCCC2)[nH]1 [MC 1196]	>95
CCN(CC)c1nc(Cc2c(F)cccc2F)cc(=O)[nH]1 [MC 1202]	>769
Cc1c(Cc2c(F)cccc2F)nc(N2CCN(C)CC2)[nH]c1=O [MC 1203]	>555
CCCN(CCC)c1nc(Cc2c(F)cccc2F)cc(=O)[nH]1 [MC 1204]	>53
Cc1c(Cc2c(F)cccc2F)nc(N2CCOCC2)[nH]c1=O [MC 1205]	>4,255
Cc1c(Cc2c(F)cccc2F)nc(N2CCSCC2)[nH]c1=O [MC 1206]	>2,222

Source: US6545007B2, “Methods for inhibiting the transmission of HIV using topically applied substituted 6-benzyl-4-oxopyrimidines” (Idenix (Cayman) Limited, priority 2000, dated 2003)
